Source: US20260166162A1, “CARBON CHAIN SUBSTANCE FOR REGULATING TRANSMEMBRANE TRANSPORT AND FLUIDITY OF CELL MEMBRANES, AND PREPARATION AND USE THEREOF” (priority 2022, published 2026)

Experiments:
[1] = system: H7N9 pseudovirus; conditions: 0.035 mM, 1 h
[2] = system: SARS-CoV-2 pseudovirus; conditions: 0.035 mM, 1 h
[3] = system: HIV pseudovirus; conditions: 0.035 mM, 1 h
[4] = system: H5N1 pseudovirus
[5] = system: SARS-CoV-2 pseudovirus, Staphylococcus aureus, Escherichia coli and hepatic stellate cells; format: cell-based

For “ALA-HSA: serum albumin grafted with linolenic acid by amide bonds (Example 1)”, the “Sterilization rate (%)” value [1] was greater than 99.9%, the “Sterilization rate (%)” value [2] was greater than 99.9% and the “Sterilization rate (%)” value [3] was greater than 99.9%. The “Sterilization rate (%)” value ([4]; 0.035 mM, 1 h) was greater than 99.9%.

In the case of “DHA-HSA: serum albumin grafted with docosahexaenoic acid (Example 1)”, the “absorption of DiI-labelled complex by receptors of different size (fluorescence intensity)” value [5] was “smaller individuals can more rapidly absorb”.

Work on “octacosanoic acid-serum albumin complex: serum albumin grafted with octacosanoic acid (method of Example 1)” yielded a neutralization inhibition rate [4] of 53% and a pIC50 ([4]; read-out: median inhibition concentration (presumed)) of roughly 5.05.

pIC50: −log10 of the molar value.
